Measured values as given in the supplement of paper PMC12637763.
This is one part of the list. Env chains of viruses from a treatment-interruption trial, translated from the printed DNA. IC50 / IC80 of two broadly neutralizing antibodies; lower = more sensitive virus; >50 µg/ml means not reached and <0.001 µg/ml is below the lowest dose. No active / inactive call.

Legend:
antibody 10-1074 [1] = assay: neutralization IC50; higher = virus less sensitive to the antibody
Experimental: (§1)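 Pseudovirus bearing the Env chain mixed with antibody, from 50 µg/ml in fivefold dilutions, on TZM-bl reporter cells, in duplicate.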

antibody 3BNC117 [2] = assay: as above
Experimental: as §1

antibody 10-1074 [3] = assay: neutralization IC80; higher = virus less sensitive to the antibody
Experimental: as §1

antibody 3BNC117 [4] = assay: as above
Experimental: as §1

| Binder | neutralization IC50 (antibody 10-1074 [1]) | neutralization IC50 (antibody 3BNC117 [2]) | neutralization IC80 (antibody 10-1074 [3]) | neutralization IC80 (antibody 3BNC117 [4]) |
| --- | --- | --- | --- | --- |
| HIV-1 Env, rebound clone, antibody arm (protein) MRVREIRRNYLWRWGTLLLGILMMICSADNWWVTVYYGVPVWKEATTTLFCASDAKAYETEVHNVWATHACVPTDPNPQEVALENVTENFNMWKNNMVEQMQEDIISLWDQSLKPCVELTPLCVTLNCTNVNNTRTNSTISGPTAKPGEEEMKNCSFNITTGIRDKIKKEYALFYKLDVVPIDDSNTSYRLISCNTSVIKQACPKVSFEPIPIHYCAPAGFAILKCRDKQFNGTGPCRNVSTVQCTHGIKPVVTTQLLLNGSLAEEEVVIRSANFSDNAKIIIVQLNESVQINCTRPNNNTRKSIPIGPGRAFYATGDIIGDIRQAHCSISKTRWNNTLKLIREKLKTQFGDKTIVFNQSSGGDPEIVTHSFNCGGEFFYCNTTPLFNSTEGSNTTAENNTTDIITLQCRIKQIINMWQKVGKAMYAPPIRGNISCSSNITGLLLTRDGGNTTDNGSEIFRPGGGDMRDNWRSELYKYKVVKIEPIGLAPTKAKRRVVQREKRALGMGALFLGFLGAAGSTMGAASVTLTVQARQLLSGIVQQQNNLLRAIEAQQHLLQLTVWGIKQLQARVLAVESYLRDQQLLGIWGCSGKLICTTAVPWNISWSKSKSWNKTNLADIWENMTWMQWESEIDNYTNIIYQLIEESQNQQEKNEKDLLELDKWASLWNWFSISNWLWYIKLFIMIVGGLIGLRIIFSVLSIVNRVRQGYSPLSFQTRPPAARGHDRPEGIEEGGGDRDRDRSNQLVDGFLALIWVDLRSLCLFSYHRLRDFLLVVTRIVELLGRRGWEILKYWWNLLQYWSQELKNSAVSLLNATAIAVAEGTDRVIEIVQRAFRAIIHIPTRIRQGFERALV | > 50 µg/mL | 0.136 µg/mL | > 50 µg/mL | 0.627 µg/mL |
| HIV-1 Env, rebound clone, antibody arm (protein) MRVREIRRNYLWRWGTLLLGILMMICSADNWWVTVYYGVPVWKEATTTLFCASDAKAYETEVHNVWATHACVPTDPNPQEVALENVTENFNMWKNNMVEQMQEDIISLWDQSLKPCVELTPLCVTLNCTNVNNTRTNSTISGPTAKPGEEEMKNCSFNITTGIRDKIKKEYALFYKLDVVPIDDSNTSYRLISCNTSVIKQACPKVSFEPIPIHYCAPAGFAILKCRDKQFNGTGPCRNVSTVQCTHGIKPVVTTQLLLNGSLAEEEVVIRSANFSDNAKIIIVQLNESVQINCTRPNNNTRKSIPIGPGRAFYATGDIIGDIRQAHCDISKTRWNNTLKLIREKLKTQFGDKTIVFNQSSGGDPEIVTHSFNCGGEFFYCNTTPLFNSTEGSNTTAENNTTDIITLQCRIKQIINMWQKVGKAMYAPPIRGNISCSSNITGLLLTRDGGNTTDNGSEIFRPGGGDMRDNWRSELYKYKVVKIEPIGLAPTKAKRRVVQREKRALGMGALFLGFLGAAGSTMGAASVTLTVQARQLLSGIVQQQNNLLRAIEAQQHLLQLTVWGIKQLQARVLAVESYLRDQQLLGIWGCSGKLICTTAVPWNISWSKSKSWNKTNLADIWENMTWMQWESEIDNYTNIIYQLIEESQNQQEKNEKDLLELDKWASLWNWFSISNWLWYIKLFIMIVGGLIGLRIIFSVLSIVNRVRQGYSPLSFQTRPPAARGHDRPEGIEEGGGDRDRDRSNQLVDGFLALIWVDLRSLCLFSYHRLRDFLLVVTRIVELLGRRGWEILKYWWNLLQYWSQELKNSAVSLLNATAIAVAEGTDRVIEIVQRAFRAIIHIPTRIRQGFERALV | > 50 µg/mL | 0.174 µg/mL | > 50 µg/mL | 0.514 µg/mL |
| HIV-1 Env, rebound clone, antibody arm (protein) MRVREIRRNYLWRWGTLLLGILMMICSADNWWVTVYYGVPVWKEATTTLFCASDAKAYETEVHNVWATHACVPTDPNPQEVALENVTENFNMWKNNMVEQMQEDIISLWDQSLKPCVELTPLCVTLNCTNVNNTRTNSTISGPTAKPGEEEMKNCSFNITTGIRDKIKKEYALFYKLDVVPIDDSNTSYRLISCNTSVIKQACPKVSFEPIPIHYCAPAGFAILKCRDKQFNGTGPCRNVSTVQCTHGIKPVVTTQLLLNGSLAEEEVVIRSANFSDNAKIIIVQLNESVQINCTRPNNNTRKSIPIGPGRAFYATGDIIGDIRQAHCDISKTRWNNTLKLIREKLKTQFGDKTIVFNQSSGGDPEIVTHSFNCGGEFFYCNTTPLFNSTEGSNTTAENNTTDIITLQCRIKQIINMWQKVGKAMYAPPIRGNISCSSNITGLLLTRDGGNTTDNGSEIFRPGGGDMRDNWRSELYKYKVVKIEPIGLAPTKAKRRVVQREKRALGMGALFLGFLGAAGSTMGAASVTLTVQARQLLSGIVQQQNNLLRAIEAQQHLLQLTVWGIKQLQARVLAVESYLRDQQLLGIWGCSGKLICTTAVPWNISWSKSKSWNKTNLADIWENMTWMQWESEIDNYTNIIYQLIEESQNQQEKNEKDLLELDKWASLWNWFSISNWLWYIKLFIMIVGGLIGLRIIFSVLSIVNRVRQGYSPLSFQTRPPAARGHDRPEGIEEGGGDRDRDRSNQLVDGFLALIWVDLRSLCLFSYHRLRDFLLVVTRIVELLGRRGWEILKYWWNLLQYWSQELKNSAVSLLNATAIAVAEGTDRVIEIVQRAFRAIIHIPTRIRQGFERALL | > 50 µg/mL | 0.197 µg/mL | > 50 µg/mL | 0.939 µg/mL |
| HIV-1 Env, rebound clone, antibody arm (protein) MRVREIRRNYLWRWGTLLLGILIMICSADNWWVTVYYGVPVWKEATTTLFCASDAKAYETEVHNVWATHACVPTDPNPQEVALENVTENFNMWKNNMVEQMQEDIISLWDQSLKPCVELTPLCVTLNCTNVNNTRTNSTISGPTAKPGEEEMKNCSFNITTGIRDKIKKEYALFYKLDVVPIDDSNTSYRLISCNTSVIKQACPKVSFEPIPIHYCAPAGFAILKCRDKQFNGTGPCRNVSTVQCTHGIKPVVTTQLLLNGSLAEEEVVIRSANFSDNAKIIIVQLNESVQINCTRPNNNTRKSIPIGPGRAFYATGDIIGDIRQAHCSISKTRWNNTLKLIREKLKTQFGDKTIVFNQSSGGDPEIVTHSFNCGGEFFYCNTTPLFNSTEGSNTTAENNTTDIITLQCRIKQIINMWQKVGKAMYAPPIRGNISCSSNITGLLLTRDGGNTTDNGSEIFRPGGGDMRDNWRSELYKYKVVKIKPIGLAPTKAKRRVVQREKRALGMGALFLGFLGAAGSTMGAASVTLTVQARQLLSGIVQQQNNLLRAIEAQQHLLQLTVWGIKQLQARVLAVESYLRDQQLLGIWGCSGKLICTTAVPWNISWSKSKSWNKTNLADIWENMTWMQWESEIDNYTNIIYQLIEESQNQQEKNEKDLLELDKWASLWNWFSISNWLWYIKLFIMIVGGLIGLRIIFSVLSIVNRVRQGYSPLSFQTRPPAARGHDRPEGIEEGGGDRDRDRSNQLVDGFLALIWVDLRSLCLFSYHRLRDFLLVVTRIVELLGRRGWEILKYWWNLLQYWSQELKNSAVSLLNATAIAVAEGTDRVIEIVQRAFRAIIHIPTRIRQGFERALL | > 50 µg/mL | 0.302 µg/mL | > 50 µg/mL | 0.964 µg/mL |
| HIV-1 Env, rebound clone, antibody arm (protein) MRVREIRRNYLWRWGTLLLGILMMICSADNWWVTVYYGVPVWKEATTTLFCASDAKAYETEVHNVWATHACVPTDPNPQEVALENVTENFNMWKNNMVEQMQEDIISLWDQSLKPCVELTPLCVTLNCTNVNNTRTNSTISGPTAKPGEEEMKNCSFNITTGIRDKIKKEYALFYKLDVVPIDDSNTSYRLISCNTSVIKQACPKVSFEPIPIHYCAPAGFAILKCRDKQFNGTGPCRNVSTVQCTHGIKPVVTTQLLLNGSLAEEEVVIRSANFSDNAKIIIVQLNESVQINCTRPNNNTRKSIPIGPGRAFYATGDIIGDIRQAHCNISKTRWNNTLKLIREKLKTQFGDKTIVFNQSSGGDPEIVTHSFNCGGEFFYCNTTPLFNSTEGSNTTAENNTTDIITLQCRIKQIINMWQKVGKAMYAPPIRGNISCSSNITGLLLTRDGGNTTDNGSEIFRPGGGDMRDNWRSELYKYKVVKIEPIGLAPTKAKRRVVQREKRALGMGALFLGFLGAAGSTMGAASVTLTVQARQLLSGIVQQQNNLLRAIEAQQHLLQLTVWGIKQLQARVLAVESYLRDQQLLGIWGCSGKLICTTAVPWNISWSKSKSWNKTNLADIRENMTWMQWESEIDNYTNIIYQLIEESQNQQEKNEKDLLELDKWASLWNWFSISNWLWYIKLFIMIVGGLIGLRIIFSVLSIVNRVRQGYSPLSFQTRPPAARGHDRPEGIEEGGGDRDRDRSNQLVDGFLALIWVDLRSLCLFSYHRLRDFLLVVTRIVELLGRRGWEILKYWWNLLQYWSQELKNSAVSLLNATAIAVAEGTDRVIEIVQRAFRAIIHIPTRIRQGFERALL | 0.027 µg/mL | 0.146 µg/mL | 0.077 µg/mL | 0.687 µg/mL |
| HIV-1 Env, rebound clone, antibody arm (protein) MRVREIRRNYLWRWGTLLLGILMMICSADNWWVTVYYGVPVWKEATTTLFCASDAKAYETEVHNVWATHACVPTDPNPQEVALENVTENFNMWKNNMVEQMQEDIISLWDQSLKPCVELTPLCVTLNCTNVNNTRTNSTISGPTAKPGEEEMKNCSFNITTGIRDKIKKEYALFYKLDVVPIDDSNTSYRLISCNTSVIKQACPKVSFEPIPIHYCAPAGFAILKCRDKQFNGTGPCRNVSTVQCTHGIKPVVTTQLLLNGSLAEEEVVIRSANFSDNAKIIIVQLNESVQINCTRPNNNTRKSIPIGPGRAFYATGDIIGDIRQAHCDISKTRWNNTLKLIREKLKTQFGDKTIVFNQSSGGDPEIVTHSFNCGGEFFYCNTTPLFNSTEGSNTTAENNTTDIITLQCRIKQIINMWQKVGKAMYAPPIRGNISCSSNITGLLLTRDGGNTTDNGSEIFRPGGGDMRDNWRSELYKYKVVKIEPIGLAPTKAKRRVVQREKRALGMGALFLGFLGAAGSTMGAASVTLTVQARQLLSGIVQQQNNLLRAIEAQQHLLQLTVWGIKQLQARVLAVESYLRDQQLLGIWGCSGKLICTTAVPWNISWSKSKSWNKTNLADIWENMTWMQWESEIDNYTNIIYQLIEESQNQQEKNEKDLLELDKWASLWNWFSISNWLWYIKLFIMIVGGLIGLRIIFSVLSIVNRVRQGYSPLSFQTRPPAARGHDRPEGIEEGGGDRDRDRSNQLVDGFLALIWVDLRSLCLFSYHRLRNFLLVVTRIVELLGRRGWEILKYWWNLLQYWSQELKNSAVSLLNATAIAVAEGTDRVIEIVQRAFRAIIHIPTRIRQGFERALL | > 50 µg/mL | 0.434 µg/mL | > 50 µg/mL | 1.34 µg/mL |
